Molecules are shown by their SMILES. Only a part is listed here, and it is no random draw. The source made the active and inactive calls.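 The calls were made as follows: active = inhibition at or above 50% at 10 µM; inactive = inhibition below 50%.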

The test can be described thus: blockers of RIG-like receptor reporter activation – cell-based, Sendai virus stimulus, luciferase, 10K MLSCN set, TLR/RLR signaling modifier project, primary screen (AID 602276).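 Also: firefly luciferase from ISG56 promoter only with Renilla not read in this screen; 0% = Sendai virus plus DMSO and 100% = medium plus DMSO without virus.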 Conditions: HEK293 RL24 IRF3 luciferase reporter, at 10 µM, active compounds read high.
A word on the inhibition: it is the relative decrease from the control value, in per cent. For the compound `Fc1ccccc1NC1CCN(Cc2ccccc2)CC1`, the inhibition is inactive: 19.8%.

Source of the values: PubChem BioAssay AID602276 (University of Pittsburgh Molecular Library Screening Center, 2012).
